The results in this text go back to patent US8071797B2 (priority 2008, dated 2011).

Broadly, the IC50 is the concentration at which inhibition is half-maximal.

The target of this assay is HCV polymerase (NS5B570n-Con1) (Hepatitis C virus genotype 1b, UniProt Q9WMX2). The experiment in a line: HCV NS5B RNA polymerase activity assay. The note with it: read-out: IC50 NS5B polymerase assay; Table I. In kind it is biochemical, HCV Con1 strain. Here is the method: The enzymatic activity of HCV polymerase (NS5B570n-Con1) was measured as the incorporation of radiolabeled nucleotide monophosphates into acid insoluble RNA products. Unincorporated radiolabeled substrate was removed by filtration and scintillant was added to the washed and dried filter plate containing radiolabeled RNA product. The amount of RNA product generated by NS5B570-Con1 at the end of the reaction was directly proportional to the amount of light emitted by the scintillant.
The N-terminal 6-histidine tagged HCV polymerase, derived from HCV Con1 strain, genotype 1b (NS5B570n-Con1) contains a 21 amino acid deletion at the C-terminus relative to the full-length HCV polymerase and was purified from E. coli strain BL21 (DE) pLysS. The construct, containing the coding sequence of HCV NS5B Con1 (GenBank accession number AJ242654) was inserted into the plasmid construct pETI 7b, downstream of a T7 promoter expression cassette and transformed into E. coli. A single colony was grown overnight as a starter culture and later used inoculate 10 L of LB media supplemented with 100 μg/mL ampicillin at 37° C. Protein expression was induced by the addition of 0.25 mM isopropyl-β-D-thiogalactopyranoside (IPTG) when optical density at […] of the culture was between 0.6 and 0.8 and cells were harvested after 16 to 18 h at 30° C. NS5B570n-Con1 was purified to homogeneity using a three-step protocol including subsequent column chromatography on Ni-NTA, SP-Sepharose HP and Superdex 75 resins.
Each 50 μl enzymatic reaction contained 20 nM RNA template derived from the complementary sequence of the Internal Ribosome Entry Site (cIRES), 20 nM NS5B570n-Con1 enzyme, 0.5 μCi of tritiated UTP (Perkin Elmer catalog no. TRK-412; specific activity: 30 to 60 Ci/mmol; stock solution concentration from 7.5×10^-5 M to 20.6×10^-6 M), 1 μM each ATP, CTP, and GTP, 40 mM Tris-HCl pH 8.0, 40 mM NaCl, 4 mM DTT (dithiothreitol), 4 mM MgCl2, and 5 μl of compound serial diluted in DMSO. Reaction mixtures were assembled in 96-well filter plates (cat #MADVN0B, Millipore Co.) and incubated for 2 h at 30° C. Reactions were stopped by addition of 10% final (v/v) trichloroacetic acid and incubated for 40 min at 4° C. […]
The amount of light emitted from the scintillant was converted to counts per minute (CPM) on a Topcount® plate reader (Perkin-Elmer, Energy Range: Low, Efficiency Mode Normal, Count Time: 1 min, Background Subtract: none, Cross talk reduction: Off).
Data was analyzed in Excel® (Microsoft®) and ActivityBase® (idbsg). […] All data was expressed as a percentage of the positive control. […]
As for `CNC(=O)c1c(-c2ccc(Oc3ccc(F)cc3)cc2)oc2cc(N(C)S(C)(=O)=O)c(C)cc12`, the IC50 was 0.029 µM.
In the case of `CNC(=O)c1c(-c2ccc(Oc3ccc(F)cc3)cc2)oc2cc(N(CCCC(=O)O)S(C)(=O)=O)c(C3CC3)cc12`, the IC50 stood at 0.004 µM.
Take `CNC(=O)c1c(-c2ccc(Nc3ccc(Cl)cc3)cc2)oc2cc(N(CCO)S(C)(=O)=O)c(OC)cc12` [Compound I-3]: the IC50 is 0.037 µM.
Consider `CNC(=O)c1c(-c2ccc(Oc3ccc(F)cc3)cc2)oc2cc(N(C)S(C)(=O)=O)c(C3CC3)cc12`, for which the IC50 is 0.044 µM.
